Pooled drug test results. Numbers come from NIAID ChemDB, via PubChem.

MIC50, MIC90 and the like: level of inhibition, or share of isolates inhibited. An empty or dashed field is not shown. Inhibition is in % at the dose shown (toxicity tests: loss of growth or viability). Rows are shuffled and stem from different studies. MIC bound: limit read from a one-dose screen.

structure	protein	endpoint	read by	strain or isolate	dose	species	test	value
CCCCCC(C)NCCNC[C@]1(C)CCC[C@]2(C)c3ccc(C(C)C)cc3CC[C@@H]12		MIC				Mycobacterium tuberculosis	culture	12.5 µM
N#Cc1ccccc1C(N)=O		MIC		H37Rv		Mycobacterium tuberculosis	culture	>100 µg/mL
CCCCNc1nc(SC)nc2nc[nH]c12		inhibition	resazurin	H37Rv	6.25 µg/mL	Mycobacterium tuberculosis	culture	37%
CC1CCCC(NCCNCC(c2ccccc2)c2ccccc2)C1C		MIC				Mycobacterium tuberculosis	culture	18.8 µM
Nc1ccc(N(c2ccc(N)cc2)c2ccc(N)cc2)cc1		MIC		H37Rv		Mycobacterium tuberculosis	culture	50 µg/mL
Cn1c(N)c(N=Nc2ccc(S(=O)(=O)Nc3ccccn3)cc2)c(=O)n(C)c1=O		MIC bound	BACTEC	H37Rv		Mycobacterium tuberculosis	culture	>12.5 µg/mL
COc1ccc(CNCCNCCC2=CCCCC2)cc1OC		MIC				Mycobacterium tuberculosis	culture	50 µM
CC(=O)NCCO		MIC		H37Rv		Mycobacterium tuberculosis	culture	>100 µg/mL
O=c1[nH]c2c(Cl)cc(Cl)c(Cl)c2c2ccccc12		inhibition	BACTEC	H37Rv	6.25 µg/mL	Mycobacterium tuberculosis	culture	2%
Oc1cc(-[n+]2ccccc2)c(O)cc1-[n+]1ccccc1.[I-]		MIC		H37Rv		Mycobacterium tuberculosis	culture	>100 µg/mL
O=C(CCSC(=S)Nc1ccc(Cl)cc1)NNc1ccccc1		MIC bound	BACTEC	H37Rv		Mycobacterium tuberculosis	culture	≤128 µg/mL
CCCCCCCCC1SC1CCCCCCCC(=O)O		MIC		H37Rv		Mycobacterium tuberculosis	culture	>100 µg/mL
Fc1ccc(N2CCCCC2)c(NC(=S)c2ccncc2)c1	cSRC	inhibition	kinase activity		10 µM		host protein	-6%
CC1=NN(C(=O)CC(=O)Nc2ccc(C(=O)O)cc2)C(=O)C1N=Nc1ccccc1C(=O)O		MIC	BACTEC	H37Rv		Mycobacterium tuberculosis	culture	≥12.8 µg/mL
COc1ccc(CNCCNCc2ccccc2Cl)c(OC)c1		MIC				Mycobacterium tuberculosis	culture	50 µM
c1ccc2c(c1)Sc1ccccc1N2CCN1CCOCC1		MIC		H37Rv		Mycobacterium tuberculosis	culture	100 µg/mL
CN(CCN(C)C(=O)CCn1cc(F)c(=O)[nH]c1=O)C(=O)CCn1cc(F)c(=O)[nH]c1=O		inhibition	resazurin	H37Rv	6.25 µg/mL	Mycobacterium tuberculosis	culture	62%
CC1(C)[C@H]2CC[C@@H](CNCCNCCc3ccc(Cl)cc3Cl)[C@@H]1C2		MIC				Mycobacterium tuberculosis	culture	25 µM
CC(C)=C1CCC(C)CC1=O		MIC		H37Rv		Mycobacterium tuberculosis	culture	>100 µg/mL
CCCCC(CC)CN1CN(CC(CC)CCCC)CC(C)(NCCNCc2cccc3ccccc23)C1		MIC				Mycobacterium tuberculosis	culture	25 µM
O=c1ccc2nc3cc(Cl)ccc3sc-2c1		MIC	resazurin	H37Rv		Mycobacterium tuberculosis	culture	3.13 µg/mL
O=C(Nc1ccccc1)c1ccc([N+](=O)[O-])cc1O		MIC		H37Rv		Mycobacterium tuberculosis	culture	>100 µg/mL
C=CC1=C(C)C2=NC1=CC1=NC(=C(CC)/C1=C\O)C=C1N=C3C(=C1C)C(=O)[C@H](C(=O)OC)C3=C1NC(=C2)[C@@H](C)[C@@H]1CCC(=O)O		MIC bound	resazurin	H37Rv		Mycobacterium tuberculosis	culture	>6.25 µg/mL
CC(CNCCNC(C)(C)CC(C)(C)C)c1ccccc1		MIC				Mycobacterium tuberculosis	culture	50 µM
Nc1ccc(Nc2ccc([As]=O)cc2)nc1		MIC		H37Rv		Mycobacterium tuberculosis	culture	50 µg/mL
CCCCCNCCNCc1ccc(OC)cc1OC		MIC				Mycobacterium tuberculosis	culture	25 µM
COc1ccc2c(c1)N(CC(C)C[N+](C)(C)CCCCCCCCCC[N+](C)(C)CC(C)CN1c3ccccc3Sc3ccc(OC)cc31)c1ccccc1S2.[Br-].[Br-]		inhibition	BACTEC	H37Rv	12.5 µg/mL	Mycobacterium tuberculosis	culture	82%
NC(CCCCNC(=O)c1ccccc1)C(=O)O		MIC		H37Rv		Mycobacterium tuberculosis	culture	100 µg/mL
CC(CCCN)Nc1cc2c(c3cccnc13)OCCO2.O=P(O)(O)O		MIC	BACTEC	H37Rv		Mycobacterium tuberculosis	culture	≥12.5 µg/mL
NCC(=O)NCC(=O)O		MIC		H37Rv		Mycobacterium tuberculosis	culture	>100 µg/mL
CC(C)=CCC/C(C)=C/CNCCNC(C)c1cccc2ccccc12		MIC				Mycobacterium tuberculosis	culture	25 µM
Nc1nc(-c2ccccc2)c(N=Nc2cc(Cl)ccc2Cl)s1		inhibition	BACTEC	H37Rv	12.5 µg/mL	Mycobacterium tuberculosis	culture	-26%
C=CCc1ccc(OC)c(OC)c1		MIC90	turbidity	3191		Candida tropicalis	culture	345 µg/mL

Again, the opening 4 rows:

structure,protein,endpoint,read by,strain or isolate,dose,species,test,value
CCCCCC(C)NCCNC[C@]1(C)CCC[C@]2(C)c3ccc(C(C)C)cc3CC[C@@H]12,,MIC,,,,Mycobacterium tuberculosis,culture,12.5 µM
N#Cc1ccccc1C(N)=O,,MIC,,H37Rv,,Mycobacterium tuberculosis,culture,>100 µg/mL
CCCCNc1nc(SC)nc2nc[nH]c12,,inhibition,resazurin,H37Rv,6.25 µg/mL,Mycobacterium tuberculosis,culture,37%
CC1CCCC(NCCNCC(c2ccccc2)c2ccccc2)C1C,,MIC,,,,Mycobacterium tuberculosis,culture,18.8 µM